Pooled drug test results. Numbers come from NIAID ChemDB, via PubChem.

All rows: tests in culture; species: HIV-1; read-out: EC50

Two numbers with a dash give a range or band.

structure,setting,cell line,strain,method,changes,result
CCCCCCCCCCCCCCCC(=O)NCC1OC(n2cnc3c(N)ncnc32)C(OP(=O)(O)OCC2OC(n3cnc4c(N)ncnc43)C(OP(=O)(O)OCCOCn3cnc4c(N)ncnc43)C2O)C1O,,SupT1 + Sup-T1,IIIB,syncytia,,<100 µM
CC(C)C1=C2[C@H]3CC[C@@H]4[C@@]5(C)CC[C@H](OC(=O)[C@H]6C[C@@H](C(=O)O)C6(C)C)C(C)(C)[C@@H]5CC[C@@]4(C)[C@]3(C)CC[C@@]2(CC(=O)NCC(C)(C)NC(=O)c2ccc(N3CCC(O)CC3)cn2)CC1=O,,MT-2,92HT599,p24 / ELISA,,<1 µM
COc1cnc(-n2cnc(C)n2)c2[nH]cc(C(=O)C(=O)N3CCN(C(=O)c4ccccc4)CC3)c12,,U-87,NL4-3,luciferase,M426K,0.0037 µM
COc1ccc(-n2c(C)nnc2SCC(=O)Nc2ccc(S(N)(=O)=O)cc2Cl)c2ccccc12,,HeLa + HeLa-JC53,NL4-3,luciferase,RT-Y188L,0.11 µM
Cc1cc(CNC(=O)c2nc3n(c(=O)c2O)[C@@H](C)COC[C@H]3N(C)C(=O)C(=O)N(C)C)ccc1F,,HeLa P4-2,,single cycle,N155H,0.002 µM
Cc1cn([C@H]2C[C@H](N=[N+]=[N-])[C@@H](CO)O2)c(=O)n(Cc2ccoc2)c1=O,,CEM-C113 + CEM/C113,LAI,cytopathic effect / MTT,,143 µM
C=CC(C)(/C=C\c1ccc(O)cc1)c1ccc(O)cc1.NC(=O)NO,,Macrophage,BaL,p24,,<0.00232 µM
CC(C)C1=C2[C@H]3CC[C@@H]4[C@@]5(C)CC[C@H](OC(=O)[C@H]6C[C@@H](C(=O)O)C6(C)C)C(C)(C)[C@@H]5CC[C@@]4(C)[C@]3(C)CC[C@@]2(CCNCc2ccc(Cl)cc2OCCN2CCCC2)CC1=O,,MT-2,92HT599,p24 / ELISA,,<1 µM
C/C1=C\CC(C)(C)/C=C/C(=O)/C(C)=C/CC1,,CEM(SS) + CEM-SS,RF,cytopathic effect / XTT,,0.04 µg/mL
CC[C@H](/C=C/[C@@H](C)[C@H]1CCC2C3CC=C4CC(O[C@@H]5O[C@H](CO)[C@@H](O)[C@H](O)[C@H]5O)CC[C@]4(C)C3CC[C@@]21C)C(C)C,,1A2,Tat/Rev-defective,syncytia,,73.6 µg/mL
Nc1ccn([C@@H]2C[C@@H](F)[C@H](CO)O2)c(=O)n1,,PBM,LAV,RT activity,,>100 µM
COc1cccc2ccc(/C=C/C(=O)Nc3ccccc3F)nc12,,TZM-bl + HL2/3,,cell fusion / luminescence,,0.96 µM
O=C(CNC(=O)COc1ccccc1)NCc1ccc(C(=O)N2CCCCC2)cc1,,PBMC,BaL,RT activity,,27.8 µM
Nc1nc2c(ncn2[C@H]2C=C[C@@H](CO)C2)c(=O)[nH]1,,JM,,cytopathic effect,,0.13 µg/mL
CCCCCCCCCCCCCCCC(=O)NCC1OC(n2cnc3c(N)ncnc32)C(OP(=O)(O)OCC2CC(OP(=O)(O)OCC3OC(n4cnc5c(N)ncnc54)C(O)C3O)C(n3cnc4c(N)ncnc43)O2)C1O,,SupT1 + Sup-T1,IIIB,syncytia,,<100 µM
CC(C)(C)OC(=O)N(CCCCCC(=O)OC[C@H]1O[C@@H](n2ccc(N)nc2=O)CS1)CCCCCN(Cc1ccccc1)C(=O)OC(C)(C)C,,Macrophage + Monocytes/macrophages,PAR,syncytia,,0.00001 µM
Cc1cc(C#N)cc(C(=O)c2ccccc2OCC(=O)Nc2ccc(S(N)(=O)=O)cc2C)c1,,HeLa MAGI + HeLa,,β-galactosidase,RT-L100I K103N,<0.005 µM
CC(C)=CCOc1cc(NC(=S)c2ccoc2C)ccc1Cl,,CEMx174 + CEM,IIIB,cytopathic effect / XTT,,0.01 µM
CCCCCCCCCCCCCCCCOP(=O)(OCCO[C@@H]1O[C@H](CO)[C@@H](O)[C@H](O)[C@@H]1O)OC[C@H]1O[C@@H](n2cc(C)c(=O)[nH]c2=O)C[C@@H]1N=[N+]=[N-],7 d,U-937,LAV-Bru,RT activity,,>1 µM
O=C(O)c1cc(-n2cccc2)ccc1Cl,,PBMC/5.25M7,93BR020 X4R5 CLADE F,luciferase / cell fusion,,10.08 µM
COc1ccnc2[nH]cc(C(=O)C(=O)N3C4CCCC3CN(C(=O)c3ccccc3)C4)c12,,TZM-bl,QH0692,luciferase,,1.9 µM
Cc1cn([C@H]2C[C@H](N=[N+]=[N-])[C@@H](COP(=O)(O)OCCO[C@H]3O[C@H](CO)[C@@H](O)[C@H](O)[C@@H]3O)O2)c(=O)[nH]c1=O,14 d,U-937,LAV-Bru,RT activity,,>25 µM
CCN1c2ncc(CCOc3ccc(NC(=O)Nc4ccc(C(=O)O)cc4)cc3C)cc2C(=O)N(C)c2cccnc21,,C8166,IIIB,p24,,0.01–0.05 µM
Cc1ccc(C(=O)NCC[C@@]23CC[C@]4(C)[C@H](CC[C@@H]5[C@@]6(C)CC[C@H](OC(=O)[C@H]7C[C@@H](C(=O)O)C7(C)C)C(C)(C)[C@@H]6CC[C@]54C)C2=C(C(C)C)C(=O)C3)cn1,,MT-2,92HT599,p24 / ELISA,,<1 µM
Cc1c(OCC2CCC2)c2cc(F)ccc2[nH]c1=O,,HeLa + HeLa-MAGI,NNRTI-resistant (RT V108I Y181C),β-galactosidase,RT-V108I Y181C,>2 µM
Nc1ncnc2c1ncn2COCCOP(=O)(O)O,,SupT1 + Sup-T1,,syncytia,,<300 µM
CC(C)C1=C2[C@H]3CC[C@@H]4[C@@]5(C)CC[C@H](OC(=O)[C@H]6C[C@@H](C(=O)O)C6(C)C)C(C)(C)[C@@H]5CC[C@@]4(C)[C@]3(C)CC[C@@]2([C@@H](O)CNCc2ccccc2)CC1=O,,MT-2,92HT599,p24 / ELISA,,<1 µM
CC(C)(C)NC(=O)[C@@H]1CCCN1C(=O)[C@@H](O)[C@H](Cc1ccccc1)NC(=O)[C@H](CC(N)=O)NC(=O)OCc1ccccc1,,MOLT-4,C-2,p24,,~10 µM
Cc1ccc(-c2ccc(NC(=O)N3CCC4(CCO4)CC3)cc2)cc1,pseudotyped,TZM-bl,CE1176,luminescence,,>30 µM
COc1ccnc2[nH]cc(C(=O)C(=O)N3C4CC3CN(C(=O)c3ccccc3)C4)c12,,TZM-bl,ZM214,luciferase,,153 µM
CCn1c(COC(N)=O)nc(C(C)C)c1Oc1cc(C#N)cc(C#N)c1,,HeLaP4,NL4-3,β-galactosidase / reporter gene,,0.023 µM
C=C1CN(S(=O)(=O)c2ccc(C)cc2)CCCN(CC2CCCCC2)CCCN(S(=O)(=O)c2ccc(C)cc2)C1,,Monocytes/macrophages,BaL,p24,,0.29 µM
CCN1c2ncc(CCOc3ccc(C(=O)NNC)cc3C)cc2C(=O)N(C)c2cccnc21,,C8166,,p24,RT-K103N Y181C,<0.01 µM
CCc1ccc(-n2c(C)nnc2SCC(=O)Nc2ccc(C)cc2Cl)c2ccccc12,,HeLa + HeLa-JC53,NL4-3,luciferase,RT-K103N Y181C,0.032 µM
C=C(C)C1CC[C@@H]2CC[C@]3(C)C(CCC4[C@@]5(C)CC[C@H](O)C(C)(C)C5CC[C@]43C)C12,,1A2,Tat/Rev-defective,syncytia,,6.21 µg/mL
Nc1ncnc2c1ncn2COCCOP(=O)([O-])O[C@@H]1C[C@@H](COP(=O)([O-])O[C@@H]2C[C@@H](COP(=O)([O-])O[C@@H]3C[C@@H](CO)O[C@H]3n3cnc4c(N)[n+](Cc5ccccc5)cnc43)O[C@H]2n2cnc3c(N)ncnc32)O[C@H]1n1cnc2c(N)ncnc21,,SupT1 + Sup-T1,,RT activity,,<100 µM
CC(C)C1=C2[C@H]3CC[C@@H]4[C@@]5(C)CC[C@H](OC(=O)[C@H]6C[C@@H](C(=O)O)C6(C)C)C(C)(C)[C@@H]5CC[C@@]4(C)[C@]3(C)CC[C@@]2([C@@H](O)CNC(=O)c2ccc(Cl)cc2OCCN2CCS(=O)(=O)CC2)CC1=O,,MT-2,92HT599,p24 / ELISA,,<1 µM
CCN1c2ncc(CCOc3ccc(C(=O)Nc4ccccc4C(=O)O)cc3C)cc2C(=O)N(C)c2cccnc21,,C8166,IIIB,p24,,0.01–0.05 µM
O=C(CCCCCNCCCCCNCc1ccccc1)Nc1ccn([C@H]2CS[C@@H](CO)O2)c(=O)n1,,Macrophage + Monocytes/macrophages,PAR,syncytia,,0.1 µM
Nc1nc2c(ncn2[C@@H]2C[C@@H](F)[C@H](CO)O2)c(=O)[nH]1,,PBM,LAV,RT activity,,>51.3 µM
CCN(C(=O)C(=O)N(C)C)[C@H]1CC[C@H](OC)Cn2c1nc(C(=O)NCc1ccc(F)cc1)c(O)c2=O,,HeLa P4-2,,single cycle,Y143R,>0.1 µM
Nc1ncnc2c1ncn2COCCOP(=O)([O-])O[C@@H]1[C@H](O)[C@@H](COP(=O)([O-])O[C@@H]2[C@H](O)[C@@H](CO)O[C@H]2n2cnc3c(N)ncnc32)O[C@H]1n1cnc2c(N)ncnc21,,SupT1 + Sup-T1,,RT activity,,<300 µM
NC(=O)CCNC(=O)c1ccccc1SCc1ccccc1,,Monocyte macrophages,,cytopathic effect / XTT,,>100 µM
CC(C)C1=C2[C@H]3CC[C@@H]4[C@@]5(C)CC[C@H](OC(=O)[C@H]6C[C@@H](C(=O)O)C6(C)C)C(C)(C)[C@@H]5CC[C@@]4(C)[C@]3(C)CC[C@@]2(CC(=O)N[C@H](C)CNC(=O)c2ccc(Cl)cc2)CC1=O,,MT-2,92HT599,p24 / ELISA,,<1 µM
CCN1c2ncc(CCOc3ccc(NC(=O)C4CC4C(=O)O)cc3C)cc2C(=O)N(C)c2cccnc21,,C8166,IIIB,p24,,<0.01 µM
Cc1ccc2c(C)cc(C)c(-n3c(C)nnc3SCC(=O)Nc3ccc(S(N)(=O)=O)cc3Cl)c2n1,,HeLa + HeLa-JC53,NL4-3,luciferase,RT-Y188L,0.011 µM
CCN1c2ncc(CCOc3ccc(-c4ccc(C(=O)O)nc4)cc3C)cc2C(=O)N(C)c2cccnc21,,C8166,,p24,RT-K103N Y181C,<0.01 µM
CC(C)C1=C2[C@H]3CC[C@@H]4[C@@]5(C)CC[C@H](OC(=O)[C@H]6C[C@@H](C(=O)O)C6(C)C)C(C)(C)[C@@H]5CC[C@@]4(C)[C@]3(C)CC[C@@]2(CC(=O)N(CCN(C)C)Cc2ccccc2Cl)CC1=O,,MT-2,92HT599,p24 / ELISA,,<1 µM
CCc1nc(CO)n(CC)c1Oc1cc(C#N)cc(C#N)c1,,HeLaP4,NL4-3,β-galactosidase / reporter gene,,0.116 µM
Cc1cc(CNC(=O)c2nc3n(c(=O)c2O)[C@H](C)COC[C@H]3N(C)C(=O)C(=O)N(C)C)ccc1F,,HeLa P4-2,,single cycle,Y143R,0.002 µM
NCC1OC(n2cnc3c(N)ncnc32)C(OP(=O)(O)OCC2OC(n3cnc4c(N)ncnc43)C(OP(=O)(O)OCCOCn3cnc4c(N)ncnc43)C2O)C1O,,SupT1 + Sup-T1,IIIB,syncytia,,>100 µM
CC[C@@H]1COC[C@H](N(C)C(=O)C(=O)N(C)C)c2nc(C(=O)NCc3ccc(F)cc3)c(O)c(=O)n21,,HeLa P4-2,,single cycle,Q148R,0.007 µM
CCN1c2ncc(CCOc3ccc(-c4ccc(CC(=O)O)c(C)c4)cc3C)cc2C(=O)N(C)c2cccnc21,,C8166,,p24,RT-K103N Y181C,0.01–0.05 µM
CC[C@H]1COC[C@@H](N(C)C(=O)C(=O)N(C)C)c2nc(C(=O)NCc3ccc(F)cc3)c(O)c(=O)n21,,HeLa P4-2,,single cycle,G140S/Q148H,0.004 µM
CCCc1cc(=O)oc2c3c(c4c(c12)OC(C)(C)CC4)O[C@@H](C)[C@H](C)[C@@H]3O,,CEM + CEM-SS,NL4-3,cytopathic effect / XTT,RT-V108I,1.2 µM
CC(C)=CCOc1cc(NC(=S)c2ccsc2C)ccc1Cl,,CEM + CEM-SS,UC10-resistant (RT Y181C K101E),cytopathic effect / XTT,RT-Y181C K101E,1.5 µM
CC[C@H]1COC[C@H](N(C)C(=O)C(=O)N(C)C)c2nc(C(=O)NCc3ccc(F)cc3)c(O)c(=O)n21,,HeLa P4-2,,single cycle,E92Q,0.001 µM
Cc1ccc(CNC(=O)C[C@@]23CC[C@]4(C)[C@H](CC[C@@H]5[C@@]6(C)CC[C@H](OC(=O)[C@H]7C[C@@H](C(=O)O)C7(C)C)C(C)(C)[C@@H]6CC[C@]54C)C2=C(C(C)C)C(=O)C3)cn1,,MT-2,92HT599,p24 / ELISA,,<1 µM
CCc1nc(C)n(CC)c1Oc1cc(C#N)cc(C#N)c1,,HeLaP4,NL4-3,β-galactosidase / reporter gene,,0.032 µM
CC(C)C1=C2[C@H]3CC[C@@H]4[C@@]5(C)CC[C@H](OC(=O)[C@H]6C[C@@H](C(=O)O)C6(C)C)C(C)(C)[C@@H]5CC[C@@]4(C)[C@]3(C)CC[C@@]2(CCNC(=O)c2ccc(CN3CCN(C)CC3)cc2)CC1=O,,MT-2,92HT599,p24 / ELISA,,<1 µM
Nc1ncnc2c1ncn2[C@@H]1C[C@@H](F)[C@H](CO)O1,,PBM,LAV,RT activity,,>100 µM

Repeating the final 7 entries:

structure | setting | cell line | strain | method | changes | result
CCCc1cc(=O)oc2c3c(c4c(c12)OC(C)(C)CC4)O[C@@H](C)[C@H](C)[C@@H]3O |  | CEM + CEM-SS | NL4-3 | cytopathic effect / XTT | RT-V108I | 1.2 µM
CC(C)=CCOc1cc(NC(=S)c2ccsc2C)ccc1Cl |  | CEM + CEM-SS | UC10-resistant (RT Y181C K101E) | cytopathic effect / XTT | RT-Y181C K101E | 1.5 µM
CC[C@H]1COC[C@H](N(C)C(=O)C(=O)N(C)C)c2nc(C(=O)NCc3ccc(F)cc3)c(O)c(=O)n21 |  | HeLa P4-2 |  | single cycle | E92Q | 0.001 µM
Cc1ccc(CNC(=O)C[C@@]23CC[C@]4(C)[C@H](CC[C@@H]5[C@@]6(C)CC[C@H](OC(=O)[C@H]7C[C@@H](C(=O)O)C7(C)C)C(C)(C)[C@@H]6CC[C@]54C)C2=C(C(C)C)C(=O)C3)cn1 |  | MT-2 | 92HT599 | p24 / ELISA |  | <1 µM
CCc1nc(C)n(CC)c1Oc1cc(C#N)cc(C#N)c1 |  | HeLaP4 | NL4-3 | β-galactosidase / reporter gene |  | 0.032 µM
CC(C)C1=C2[C@H]3CC[C@@H]4[C@@]5(C)CC[C@H](OC(=O)[C@H]6C[C@@H](C(=O)O)C6(C)C)C(C)(C)[C@@H]5CC[C@@]4(C)[C@]3(C)CC[C@@]2(CCNC(=O)c2ccc(CN3CCN(C)CC3)cc2)CC1=O |  | MT-2 | 92HT599 | p24 / ELISA |  | <1 µM
Nc1ncnc2c1ncn2[C@@H]1C[C@@H](F)[C@H](CO)O1 |  | PBM | LAV | RT activity |  | >100 µM

Blank or dashed fields: not listed here. Neighbouring rows are from separate reports. ECn: concentration that inhibits the pathogen or its effect by n%.